In patent US10513540B2, “Modulation of the immune response” (THE BRIGHAM AND WOMEN'S HOSPITAL, INC., priority 2012, dated 2019):

System: CD4+Vβ8+ T cells
Settings: ligation of CEACAM1 with fusion protein, in vivo

B1: CEACAM1-Fc fusion protein: mouse CEACAM1 N-domain as an Fc fusion protein; Fc for fusion protein is human (protein)
chain: EVTIEAVPPQVAEDNNVLLLVHNLPLALGAFAWYKGNTTAIDKEIARFVPNSNMNFTGQAYSGREIIYSNGSLLFQMITMKDMGVYTLDMTDENYRRTQATVRFHVHP
modifications: left off: a dimerising Fc or GST
notes: mouse CEACAM1 N-domain as an Fc fusion protein; Fc for fusion protein is human
B1 was tested, and the “TIM3 expression on SEB-responsive CD4+Vβ8+ T cells” value was “induces increased TIM3 expression”.
